Measurements reported in PubChem BioAssay AID504761 (Drosophila RNAi Screening Center, 2011).
In all, the deposit lists about 22,000 reagents; this is a random part of those with a known target gene and a result. Of all reagents, 116 (0.52%) were called active. 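Calls depend on retest data that are not deposited; infection was ranked per plate without normalising between plates; the unit of the infection score is not given.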 Raw values are not corrected between plates. Entries without a mark were called inactive. Names joined by + are all predicted targets of the reagent. The record does not give: the amount of reagent, the time to read-out.

Assay: 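Fly genes whose silencing reduces dengue virus type 2 infection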 (primary screen)
System: D.Mel-2 cells from Drosophila
Knock-down reagent: long dsRNA against Drosophila genes
Challenge: infection with dengue virus type 2; dose and infection time not stated
Detection: 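Cells stained for dengue envelope protein and imaged; percent of infected cells per well on duplicate plates, ranked by infection, with stained nuclei counted for cell number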
Reading the numbers: infection score: higher = more virus-infected cells; cell count: higher = more cells in the well
Hit rule: 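Very low infection ranking in both replicate wells (chance probability at most 0.065), then a retest showing infection dropped 1.5-fold or more at p below 0.05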
Calls: active = confirmed: knock-down lowers infection; inactive = not picked or not confirmed

gene knocked down | DRSC id | infection score, replicate 1 | infection score, replicate 2 | cell count, replicate 1 | cell count, replicate 2
CG1208 (GeneID 40727) | DRSC12190 | 0.23 | 25.9 | 443 | 5165
how (GeneID 42596) | DRSC25008 | 1.23 | 1.53 | 6525 | 6197
CG15387 (GeneID 33403) | DRSC00401 | 2.67 | 5.49 | 6364 | 6139
CG9961 (GeneID 33459) | DRSC23343 | 2.47 | 3 | 6960 | 6974
CG9961 (GeneID 33459) | DRSC25842 | 2.68 | 12.8 | 6406 | 5581
CG9686 (GeneID 31921) | DRSC18439 | 16.2 | 14 | 4646 | 4851
CG9686 (GeneID 31921) | DRSC28497 | 9.88 | 20.4 | 4141 | 4695
AstA-R2 (GeneID 43393) | DRSC14171 | 2.12 | 4.85 | 6091 | 6295
AstA-R2 (GeneID 43393) | DRSC24820 | 6.08 | 1.97 | 6558 | 6292
ZnT63C (GeneID 38407) | DRSC08032 | 0.42 | 0.75 | 6418 | 6359
ZnT63C (GeneID 38407) | DRSC08033 | 1.06 | 0.5 | 6013 | 6238
ZnT63C (GeneID 38407) | DRSC08519 | 10.5 | 6.02 | 3782 | 2591
ZnT63C (GeneID 38407) | DRSC21989 | 9.53 | 1.03 | 6306 | 6778
ZnT63C (GeneID 38407) | DRSC23528 | 2.55 | 2.21 | 6191 | 6366
swi2 (GeneID 37010) | DRSC06457 | 7.46 | 8.83 | 7047 | 6649
GlcAT-I (GeneID 251900) | DRSC17307 | 4.15 | 4.79 | 6162 | 6115
CG17618 (retired record) + CG45049 | DRSC16163 | 0.8 | 6.79 | 6470 | 5420
CG17618 (retired record) + CG45049 | DRSC23175 | 1.24 | 14.8 | 5880 | 4962
CG2211 (GeneID 38157) | DRSC08559 | 2.14 | 1.06 | 6075 | 6321
Rh3 (GeneID 42398) | DRSC16822 | 4.65 | 6.23 | 6988 | 6616
CG15499 (retired record) (GeneID 42546) | DRSC15041 | 6.98 | 1.95 | 6322 | 6370
CG12692 (GeneID 31372) | DRSC17881 | 8.08 | 4.62 | 6127 | 6294
CG34417 (GeneID 31591) | DRSC18332 | 3.78 | 6.28 | 6319 | 6654
CG34417 (GeneID 31591) | DRSC18333 | 2.62 | 3.53 | 6029 | 6734
CG34417 (GeneID 31591) | DRSC28478 | – | – | 378 | 396
CG34384 (GeneID 5740362) | DRSC14855 | 1.19 | 6.6 | 6131 | 6050
CG34384 (GeneID 5740362) | DRSC15444 | 5.24 | 3.22 | 6280 | 6456
CG34384 (GeneID 5740362) | DRSC16575 | 6.19 | 6.57 | 6369 | 6365
Fancm (GeneID 42543) | DRSC16348 | 2.34 | 1.53 | 6504 | 6458

No new results follow: entries from further up.
gene knocked down | DRSC id | infection score, replicate 1 | infection score, replicate 2 | cell count, replicate 1 | cell count, replicate 2
CG2211 (GeneID 38157) | DRSC08559 | 2.14 | 1.06 | 6075 | 6321
Rh3 (GeneID 42398) | DRSC16822 | 4.65 | 6.23 | 6988 | 6616
CG15499 (retired record) (GeneID 42546) | DRSC15041 | 6.98 | 1.95 | 6322 | 6370
CG12692 (GeneID 31372) | DRSC17881 | 8.08 | 4.62 | 6127 | 6294

Continued.
gene knocked down | DRSC id | infection score, replicate 1 | infection score, replicate 2 | cell count, replicate 1 | cell count, replicate 2
CG12883 (GeneID 43326) | DRSC14570 | 5.52 | 8.15 | 3171 | 4183
CG12883 (GeneID 43326) | DRSC27305 | 12.1 | 14.7 | 6505 | 3799
RpL6 (GeneID 43723) | DRSC14323 | 0.76 | 2.47 | 1309 | 971
RpL6 (GeneID 43723) | DRSC22384 | 1.95 | 1.87 | 2360 | 1768
RpL6 (GeneID 43723) | DRSC25982 | 1.97 | 2.32 | 1472 | 1555
CG8008 (GeneID 35935) | DRSC07053 | 6.73 | 15.1 | 5929 | 6413
CG8008 (GeneID 35935) | DRSC27395 | 5.11 | 17.9 | 6024 | 6466
CG3907 (GeneID 37832) | DRSC04432 | 21.2 | 12.4 | 6160 | 6800
CG30016 (GeneID 246393) | DRSC05242 | 5.88 | 0.91 | 5659 | 5517
CG32106 (GeneID 317855) | DRSC09219 | 4.7 | 5.35 | 6069 | 6257
CG12917 (GeneID 36065) | DRSC06231 | 18.1 | 15.8 | 5718 | 6378
pico (GeneID 33003) | DRSC19430 | 1.26 | 5.63 | 5795 | 5701
Tsp39D (GeneID 35405) | DRSC03099 | 3.16 | – | 696 | 383
COX5B (GeneID 33918) | DRSC02115 | 3.53 | 4.84 | 6167 | 6504
Drp1 (GeneID 33445) | DRSC00574 | 5.37 | 0.63 | 5344 | 6537
Drp1 (GeneID 33445) | DRSC26413 | 2.66 | 4.02 | 5756 | 6025
CG16904 (GeneID 41212) | DRSC15161 | 15.2 | 26.7 | 6029 | 5692
CG16904 (GeneID 41212) | DRSC25306 | 2.59 | 6.8 | 5860 | 6235
Ir52c (GeneID 246630) | DRSC21801 | 29.1 | 3.4 | 6285 | 6536
Ir52c (GeneID 246630) | DRSC27570 | 23.3 | 14.1 | 5824 | 6158
rumi (GeneID 326122) | DRSC15177 | 6.36 | 4.57 | 6749 | 6743
rumi (GeneID 326122) | DRSC29617 | 18.5 | 6.03 | 5263 | 2008
Cbl (GeneID 38961) | DRSC10764 | 1.26 | 0.99 | 6339 | 6438
Cbl (GeneID 38961) | DRSC11111 | 2.55 | 2.86 | 6230 | 6496
Cbl (GeneID 38961) | DRSC28169 | 9.53 | 12.6 | 6295 | 3506
fipi (GeneID 33676) | DRSC00465 | 6.51 | 3.86 | 6102 | 6398
fipi (GeneID 33676) | DRSC25365 | 5.59 | 8.6 | 6477 | 6139
boss (GeneID 43146) | DRSC16916 | 1.59 | 1.59 | 6652 | 6926
boss (GeneID 43146) | DRSC25941 | 3.81 | 3.43 | 6326 | 6102
papi (GeneID 33401) | DRSC00693 | 6.65 | 15.9 | 5921 | 4962
CG9497 (GeneID 33884) | DRSC03234 | 1.03 | 2.82 | 6509 | 5683
CG9497 (GeneID 33884) | DRSC25510 | 12.8 | 3.14 | 6646 | 6022
GrlHz (GeneID 37648) | DRSC04424 | 13.6 | 35 | 6534 | 4839
SCAP (GeneID 35529) | DRSC04869 | 12.4 | 1.38 | 6067 | 6525
SCAP (GeneID 35529) | DRSC04907 | 3.07 | 2.63 | 6068 | 6167
mil (GeneID 43343) | DRSC15696 | 19.3 | 26.7 | 5379 | 3864
miple1 (GeneID 38047) | DRSC08722 | 1.63 | 1.34 | 5752 | 5758
tbrd-1 (GeneID 42823) | DRSC14601 | 1.05 | 4 | 6121 | 5500
CG12498 (GeneID 31272) | DRSC18635 | 11.7 | 11.8 | 4153 | 5643
CG6567 + CG4565 | DRSC15599 | 1.19 | 11 | 6651 | 6794
nkd (GeneID 44843) | DRSC11376 | 5.24 | 4.05 | 6756 | 6665
nkd (GeneID 44843) | DRSC26962 | 15 | 14.5 | 6085 | 6913
waw + bbx | DRSC24894 | 3.05 | 9.36 | 6651 | 6847
CG34382 (GeneID 5740788) | DRSC10166 | 1.5 | 4.3 | 6657 | 6329
CG34382 (GeneID 5740788) | DRSC10167 | 2.37 | 13.8 | 6022 | 6826
